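Whole-cell growth test on Mycobacterium tuberculosis, read after 3 days in glucose-containing 7H9 medium; the read-out is not stated. Concentration: 500 µM. Direction is inferred from retests: higher values go with more growth inhibition. Size under these conditions: about 18,000 compounds, about 1,400 of them at 50% or above in at least one test.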

The filed quantity is “Percent Effect” (%).
The controls that fix the scale are not given in the record; negative values are as filed.
Many other results are left out here, so strong results are more common than in the screen.

- CC(C)NC(=O)NC(=O)C(C)N1CCOCC1 (stereo not drawn) : 4.952%
- NC1CCCN(c2ccccc2)C1 (stereo not drawn) : 43.84%
- CS(=O)(=O)CC1(CN2CCNC(=O)CC2)CCC1 : -5.97%
- CCc1ccc(CN2CC(N3CCOCC3)C2)o1 : 86.67%
- CCC(C)(C)NC(=O)C1CC(=O)N(CC(F)(F)F)C1 (stereo not drawn) : 8.342%
- CCO[C@H]1CN(Cc2ccccc2C#N)C[C@@H]1O : 10.8%
- COCCOc1ccc(C(=O)NCc2ccco2)cc1 : 75.99%
- O=C(NCc1nnc2n1CCCCC2)c1ccoc1 : 1.34%
- CCc1ncc(C2NCCc3[nH]cnc32)cn1 (stereo not drawn) : 9.033%
- CNc1cc(CN(C)Cc2ccco2)ccn1 : 23.83%
- CCS(=O)(=O)NCCSc1nc2cc(F)c(F)cc2[nH]1 : 69.25%
- NC1(C2CC2)CCOCC1 : 1.501%
- CN(C)c1ccc(C2NCCc3[nH]cnc32)cn1 (stereo not drawn) : 14.1%
- CN(C)c1ccc(CNC(=O)NC2CC2)cn1 : -4.647%
- CC(C)C(=O)N(C)CCC(N)C(C)C (stereo not drawn) : 0.02861%
- CNCC(O)c1cccnc1 (stereo not drawn) : -2.347%
- CC(C)NC(=O)N(C)Cc1cccc(C(N)=O)c1 : 11.11%
- CN1CCC(CNC(=O)c2ccccc2F)CC1 : 4.488%
- CCNC(=O)NCC(C)Oc1cccc(OC)c1 (stereo not drawn) : 72.28%
- Cn1nc(C(=O)N2CCCC2c2ccco2)ccc1=O (stereo not drawn) : -12.49%
- NCc1ccc(C(=O)Nc2ccncc2)cc1 : 21.12%
- CC(C)(C)c1cc(CO)no1 : 11.91%
- CN(C)c1ccc(C(=O)N(C)C2(C#N)CCC2)cc1F : 80.32%
- CSCC(CCO)Nc1cc(C#N)c2ccccc2n1 (stereo not drawn) : -6.82%
- O=C1CCN(Cc2cccs2)CC1 : 40.37%
- CC(=O)N(C)CC(=O)NCc1nnc2ccccn12 : -5.451%
- NCCOc1ccc(OCCN)cc1 : 12.07%
- CC(=O)NCCCNCc1cccc(C#N)c1 : 53.94%
- COc1cc(CCN)ccc1C : 54.92%
- COc1ccccc1-c1[nH][nH]c(=O)c1CCN : 41.84%
- CC(C)N1CC(NC(=O)c2ccc3ccccc3n2)C1 : 17.18%
- CC(C)(C)C(=O)N1CCc2cnccc21 : 4.482%
- COCCCNCc1ccc2c(c1)OCCO2 : -1.157%
- CC(=O)N1CCCN(c2ccncc2N)CC1 : 2.683%
- CC1CN(c2nc(-c3ccccc3)ns2)CCS1(=O)=O (stereo not drawn) : -3.019%
- Nc1nc(-c2c(F)cccc2F)co1 : 77.72%
- CC(NS(=O)(=O)c1cccc(Br)c1)c1nc[nH]n1 (stereo not drawn) : 12.32%
- Cc1nc(CC(=O)NC2C=CS(=O)(=O)C2)cs1 (stereo not drawn) : 3.857%
- COc1cc(C(=O)NC[C@@H](O)c2ccc(C)cc2)on1 : 66.41%
- NS(=O)(=O)N1CCCC1C(=O)NC1CC1 (stereo not drawn) : -6.557%
- CCCNC(=O)c1cc(C(C)C)on1 : 55.23%
- c1cnn(CCN2CCCCC2Cn2cncn2)c1 (stereo not drawn) : 2.247%
- CCc1n[nH]c(CC)n1 : 0.4871%
- CN(Cc1nnc[nH]1)S(=O)(=O)c1cc(F)cc(Cl)c1 : 27.42%
- CNS(=O)(=O)c1ccc(C(=O)NCC(C)(C)N(C)C)o1 : -12.34%
- CCN1CCN(S(=O)(=O)c2cc(C)ccc2OC)CC1 : 24.73%
- Cn1ncc(Cl)c1C(=O)N1CCOCC1 : 7.648%
- CCC1(N)CCOCC1 : -10.5%
- Cc1cccc(N2CCN(C3CC3)CC2)n1 : 6.122%
- CN1CCC(NC(=O)CCCOc2ccccc2)CC1 : -10.4%
- Cc1cc(CN2CCC(C(=O)NCC(C)O)CC2)on1 (stereo not drawn) : 6.612%
- Cn1nnc(CNC(=O)C2CSc3ccccc3O2)n1 (stereo not drawn) : 42.37%
- CNCc1ccc2nsnc2c1 : -0.5079%
- CNS(=O)(=O)c1cccc(CN)c1 : 14.89%
- COc1ccc(CN2CCCC3(CCOCC3)C2)cn1 : 18.68%
- CC(C)CS(=O)(=O)N1CCC(N)CC1 : 33.14%
- CC(C)[C@@H](CO)Nc1cc([C@H]2C[C@@H](N)C2)ncn1 : 19.22%
- CCN(C)c1ccc(CO)cc1 : -3.577%

The first 5 entries again:

structure	percent effect
CC(C)NC(=O)NC(=O)C(C)N1CCOCC1 (stereo not drawn)	4.952
NC1CCCN(c2ccccc2)C1 (stereo not drawn)	43.84
CS(=O)(=O)CC1(CN2CCNC(=O)CC2)CCC1	-5.97
CCc1ccc(CN2CC(N3CCOCC3)C2)o1	86.67
CCC(C)(C)NC(=O)C1CC(=O)N(CC(F)(F)F)C1 (stereo not drawn)	8.342

Measurements from “University of Dundee, Small-Polar-MMV Screening Library” (2021), ChEMBL document CHEMBL3988442.